Values quoted from earlier work as cited in US20050026235A1 (priority 2003, published 2005).
The source holds more than one record for some entries. They are shown here; other results are not. An entry can have further records. Values that stand side by side do not match, cause unknown; dose, time, organism, isomer or construct need not be as stated for each record.

Sequences of proteins named here, by UniProt entry; tags and fusion partners are left off. Residues count along the entry.
UniProt P09598, 39-283 limits assumed: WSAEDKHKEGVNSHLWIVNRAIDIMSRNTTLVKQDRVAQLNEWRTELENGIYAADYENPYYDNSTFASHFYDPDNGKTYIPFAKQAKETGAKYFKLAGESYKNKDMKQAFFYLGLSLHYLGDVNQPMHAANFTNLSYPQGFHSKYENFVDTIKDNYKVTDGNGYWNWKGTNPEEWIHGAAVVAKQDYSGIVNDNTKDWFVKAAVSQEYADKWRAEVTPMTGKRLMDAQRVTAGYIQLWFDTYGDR

Biological target: phosphatidylcholine-specific phospholipase C (Bacillus cereus, UniProt P09598)
Conditions: tested form: K; cited from earlier work

S=C(S)OC1CC2CC1C1CCCC21 (stereo not shown)
Ki: 6 µM and 13 µM to 17 µM
